Measured values from publication PMC3172200 (2011).

Biological target: SEB (Staphylococcus aureus, UniProt P01552)
Test: SPR: binding of SEB to immobilized CD28 dimer interface peptides
Settings: Table S1, Figure 5C,D, immobilized peptide, analyte recombinant SEB, 25°C, pH 7.4, n=3

Row | SMILES | kd [s⁻¹] | ka [M⁻¹ s⁻¹]
1 | CC(C)C[C@H](NC(=O)[C@H](Cc1c[nH]cn1)NC(=O)[C@H](CCCCN)NC(=O)CNC(=O)[C@H](CCCCN)NC(=O)[C@@H](NC(=O)[C@H](Cc1c[nH]cn1)NC(=O)[C@@H](N)CS)C(C)C)C(=O)N[C@@H](CS)C(=O)N1CCC[C@H]1C(=O)N[C@@H](CS)C(=O)O | 0.000819 | 
2 | CSCC[C@H](NC(=O)[C@@H]1CCCN1C(=O)[C@H](CO)NC(=O)[C@@H](N)CS)C(=O)N[C@@H](CC(C)C)C(=O)N[C@H](C(=O)N[C@@H](C)C(=O)N[C@@H](Cc1ccc(O)cc1)C(=O)N[C@@H](CC(=O)O)C(=O)N[C@@H](CS)C(=O)O)C(C)C |  | 279
